{
  "source": "patent US20030186355A1",
  "about": "“Methods for selecting and producing t cell peptide epitopes and vaccines incorporating said selected epitopes” (priority 2000, published 2003)",
  "system": "20S proteasomes",
  "assay": "Proteasome digestion assay of 26-mer synthetic peptide substrates, fragments analysed by electrospray mass spectrometry",
  "assay_type": "biochemical, mouse",
  "settings": "MuLV natural and analogue 26-mer substrates",
  "data": [
    {"sequence": "TGRASWKPSSSWDYITVSNNLTSDQA [26-mer substrate 5B, AKV MuLV, reference compound]", "values": [
      {"measurement": "C-terminal cleavage site by the 20S proteasome", "value": "preferential C-terminal cleavage after valine"}
    ]}
  ]
}
